In US8012970B2, “Derivatives of 1-{[1,5-bis(4-chlorophenyl)-2-methyl-1H-pyrrol-3-yl]methyl}-4-methylpiperazine, synthesis process and uses thereof” (priority 2005, dated 2011):
Where “and” joins values, the source holds several entries; their conditions need not be identical. Equal entries are not always repeated.

The compounds below were run on M. tuberculosis 103471 (assay: Antimycobacterial activity, MIC in Middlebrook 7H9 broth (NCCLS procedure)). Settings: MNTD50/MIC ratio, VERO cells vs M. tuberculosis 103471.
Assay type: cell-based

Compound	Protection Index (PI)
Cc1c(CN2CCN(C)CC2)cc(-c2ccc(Cl)cc2)n1-c1ccc(Cl)cc1 [BM212, 1-{[1,5-bis(4-chlorophenyl)-2-methyl-1H-pyrrol-3-yl]methyl}-4-methylpiperazine]	5.7 and 5.6
Cc1c(CN2CCSCC2)cc(-c2ccccc2Cl)n1-c1ccc(F)cc1 [Compound 6a]	1
Cc1c(CN2CCN(C)CC2)cc(-c2ccccc2Cl)n1-c1ccc(F)cc1 [Compound 6b]	0.25
Cc1c(CN2CCSCC2)cc(-c2ccccc2F)n1-c1ccc(F)cc1 [Compound 6c]	32
Cc1c(CN2CCN(C)CC2)cc(-c2ccccc2F)n1-c1ccc(F)cc1 [Compound 6d]	0.25
Cc1ccc(-c2cc(CN3CCSCC3)c(C)n2-c2ccc(F)cc2)cc1 [Compound 6e, N-(p-fluorophenyl)-2-methyl-3-thiomorpholinomethyl-5-(p-methylphenyl)pyrrole]	160
Cc1ccc(-c2cc(CN3CCN(C)CC3)c(C)n2-c2ccc(F)cc2)cc1 [Compound 6f]	2
Cc1c(CN2CCSCC2)cc(-c2ccc(Cl)cc2Cl)n1-c1ccc(F)cc1 [Compound 6g]	32
Cc1c(CN2CCN(C)CC2)cc(-c2ccc(Cl)cc2Cl)n1-c1ccc(F)cc1 [Compound 6h]	2
Cc1c(CN2CCSCC2)cc(-c2ccc(F)cc2F)n1-c1ccc(F)cc1 [Compound 6i]	32
Cc1c(CN2CCN(C)CC2)cc(-c2ccc(F)cc2F)n1-c1ccc(F)cc1 [Compound 6j]	2
Cc1c(CN2CCSCC2)cc(-c2ccc(F)cc2)n1-c1ccccc1Cl [Compound 7a]	4
Cc1c(CN2CCN(C)CC2)cc(-c2ccc(F)cc2)n1-c1ccccc1Cl [Compound 7b]	2
Cc1c(CN2CCN(C)CC2)cc(-c2ccc(F)cc2)n1-c1ccccc1F [Compound 7d]	1
Cc1ccc(-n2c(-c3ccc(F)cc3)cc(CN3CCSCC3)c2C)cc1 [Compound 7e]	2
Cc1ccc(-n2c(-c3ccc(F)cc3)cc(CN3CCN(C)CC3)c2C)cc1 [Compound 7f]	0.5
Cc1c(CN2CCSCC2)cc(-c2ccc(F)cc2)n1-c1ccc(Cl)cc1Cl [Compound 7g]	4
Cc1c(CN2CCN(C)CC2)cc(-c2ccc(F)cc2)n1-c1ccc(Cl)cc1Cl [Compound 7h]	0.5
Cc1c(CN2CCSCC2)cc(-c2ccc(F)cc2)n1-c1ccc(F)cc1F [Compound 7i]	8
Cc1c(CN2CCN(C)CC2)cc(-c2ccc(F)cc2)n1-c1ccc(F)cc1F [Compound 7j]	1
Cc1c(CN2CCSCC2)cc(-c2ccc(F)cc2)n1-c1cccc2ccccc12 [Compound 7k]	0.5
Cc1c(CN2CCN(C)CC2)cc(-c2ccc(F)cc2)n1-c1cccc2ccccc12 [Compound 7l]	1
NNC(=O)c1ccncc1 [Isoniazid, reference compound]	128
CO[C@H]1/C=C/O[C@@]2(C)Oc3c(C)c(O)c4c(O)c(c(/C=N/N5CCN(C)CC5)c(O)c4c3C2=O)NC(=O)/C(C)=C\C=C\[C@H](C)[C@H](O)[C@@H](C)[C@@H](O)[C@@H](C)[C@H](OC(C)=O)[C@@H]1C [Rifampin, reference compound]	213
[H]/N=C(/N)N[C@H]1[C@H](O)[C@@H](O)[C@H](O[C@@H]2O[C@@H](C)[C@](O)(C=O)[C@H]2O[C@@H]2O[C@@H](CO)[C@H](O)[C@@H](O)[C@@H]2NC)[C@@H](N/C(N)=N\[H])[C@@H]1O [Streptomycin, reference compound]	128
